Anti-infective test results gathered from many reports (values: NIAID ChemDB through PubChem).

Shared fields: whole-cell or culture tests; agent: Adenovirus

An empty or dashed field is not shown.

compound | strain or isolate | cells | read by | measure | tested at | value
CSc1nsc(-c2ccc[n+](C)c2)c1C#N | TYPE 2 | HEP-2 | plaque count | EC50 |  | >1250 µM
Cc1ccc(S(=O)(=O)O)cc1.N/C(=N\N=C\c1cc(Br)cc(Br)c1O)NO | WT 300 (TYPE 5) | A549 | plaque count | EC50 |  | 5 µM
CC1(C(=O)O)CCC2(C)CCC3(C)C(=CC(=O)C4C5(C)CCC(OC(=O)C6CCCCC6C(=O)O)C(C)(C)C5CCC43C)C2C1 | TYPE 5 |  | virus yield | inhibition | 30 µM | 85%
Nc1ncnc2c1ncn2C[C@@H](CO)OCP(=O)(O)O | TYPE 4 |  |  | MIC |  | 0.3 µg/mL
Cc1cc(-c2ccc(N=Nc3c(N)c(S(=O)(=O)O)cc4cc(S(=O)(=O)O)ccc34)c(C)c2)ccc1N=Nc1c(N)ccc2cc(S(=O)(=O)O)ccc12 | TYPE 3 | Human amnion AV3 cells | cytopathic effect | inhibition | 10 µg/mL | 10%
COC(=O)[C@H]1[C@@H]2C[C@@H](O[C@@H]3O[C@H](C)[C@@H](O)[C@H](N)[C@@H]3O)/C=C/C=C/C=C/C=C/C=C/C=C/C=C/[C@H](C)[C@@H](O)[C@H](C)[C@H](C)OC(=O)C[C@H](O)C[C@H](O)[C@@H](O)CC[C@H](O)C[C@H](O)C[C@](O)(C[C@@H]1O)O2 | TYPE 4 | HFF | plaque count | inhibition | 32 µg/mL | 15%
NC(N)=Nc1cccc(C(=O)NCC(=O)NC(CC(=O)O)c2cccnc2)c1 | TYPE 2 | HeLa |  | inhibition | 100 µM | 60%
Nc1ccn(C[C@@H](CO)OCP(=O)(O)O)c(=O)n1 | TYPE 2 |  |  | MIC |  | 3 µg/mL
CSc1nsc(-c2ccc(OS(=O)(=O)c3ccc(C)cc3)cc2)c1C#N | TYPE 2 | HEP-2 | plaque count | EC50 |  | >25 µM
Nc1nc2c(ccn2[C@@H]2C[C@H](CO)[C@H](O)[C@@H]2O)c(=O)[nH]1 |  |  |  | MIC |  | >100 µg/mL
N#Cc1csnc1-c1ccccc1 | TYPE 2 | HEP-2 | plaque count | EC50 |  | >100 µM
Nc1ccn([C@H]2CC[C@@H](CO)O2)c(=O)n1 | TYPE 4 | HEP-2 |  | EC50 |  | 4.29 µg/mL
CSc1nsc(-c2cc[n+](C)cc2)c1C#N | TYPE 2 | HEP-2 | plaque count | EC50 |  | >1000 µM
Nc1cnn([C@@H]2O[C@H](CO)[C@@H](O)[C@H]2O)c(=O)n1 | TYPE 5 | HEP-2 |  | inhibition | 62 µg/mL | 100%

Again, the opening 2 rows:

compound,strain or isolate,cells,read by,measure,tested at,value
CSc1nsc(-c2ccc[n+](C)c2)c1C#N,TYPE 2,HEP-2,plaque count,EC50,,>1250 µM
Cc1ccc(S(=O)(=O)O)cc1.N/C(=N\N=C\c1cc(Br)cc(Br)c1O)NO,WT 300 (TYPE 5),A549,plaque count,EC50,,5 µM

Rows are shuffled and stem from different studies. Percent inhibition refers to the dose given; in toxicity tests it is the harm to the cells. ECn is the concentration giving n% inhibition of infection, replication or growth.